Results from publication PMC9152305, “Structural and biochemical mechanism for increased infectivity and immune evasion of Omicron BA.2 variant compared to BA.1 and their possible mouse origins” (2022).

Target: dimeric human ACE2 (Sino Biological, 10108-H02H) (human) (UniProt Q9BYF1)
Assay: BLI

SARS-CoV-2 Omicron BA.1 spike extracellular domain trimer (domain or fragment)
Kd: 0.75 nM
